PubChem BioAssay AID1259414 | Drosophila RNAi Screening Center – 2018

- Screen: 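Host factors increasing or decreasing Wolbachia levels in cultured fly cells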 (primary screen)
- System: Drosophila JW18 cells infected with Wolbachia
- Knock-down reagent: long dsRNA against Drosophila genes, 0.25 µg dsRNA per well of a 384-well plate
- Timing: 5 days
- Challenge: cells persistently infected with Wolbachia before knock-down; no added drug
- Read-out: 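Automated imaging of bacterial rRNA staining divided by host cell count, reported as plate-normalised robust z-score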
- Direction: Wolbachia per cell robust z: higher = more Wolbachia per host cell than the plate typical
- Call rule: 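Hit when robust z is 1.5 or more, or -1.5 or less, in at least two of three replicates; excludes dsRNAs with several or no targets, genes not expressed in JW18 and well A1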
The screen tested about 24,000 reagents; this is a random part of those that have a named target and a result. Of all reagents, about 1,210 (5%) are marked active. 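Inactive calls also include excluded dsRNAs with several or no targets, genes unexpressed in JW18, and well A1, regardless of score.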

{"gene knocked down": "lncRNA:CR40053 (long non-coding RNA:CR40053)", "PubChem SID": "SID104200625", "Wolbachia per cell robust z, rep 1": 0.395, "Wolbachia per cell robust z, rep 2": -0.224, "Wolbachia per cell robust z, rep 3": 0.317, "outcome": "inactive"}
{"gene knocked down": "lncRNA:CR40053 (long non-coding RNA:CR40053)", "PubChem SID": "SID104207013", "Wolbachia per cell robust z, rep 1": -0.536, "Wolbachia per cell robust z, rep 2": -0.909, "Wolbachia per cell robust z, rep 3": -1.33, "outcome": "inactive"}
{"gene knocked down": "lncRNA:CR40053 (long non-coding RNA:CR40053)", "PubChem SID": "SID104208512", "Wolbachia per cell robust z, rep 1": -0.0614, "Wolbachia per cell robust z, rep 2": 0.519, "Wolbachia per cell robust z, rep 3": -0.327, "outcome": "inactive"}
{"gene knocked down": "Aldh7A1 (Aldehyde dehydrogenase 7 family member A1)", "PubChem SID": "SID104190875", "Wolbachia per cell robust z, rep 1": -0.0153, "Wolbachia per cell robust z, rep 2": 0.676, "Wolbachia per cell robust z, rep 3": -0.461, "outcome": "inactive"}
{"gene knocked down": "CheB42a (Chemosensory protein B 42a)", "PubChem SID": "SID104202240", "Wolbachia per cell robust z, rep 1": -0.209, "Wolbachia per cell robust z, rep 2": 0.655, "Wolbachia per cell robust z, rep 3": 0.312, "outcome": "inactive"}
{"gene knocked down": "CheB42a (Chemosensory protein B 42a)", "PubChem SID": "SID104219004", "Wolbachia per cell robust z, rep 1": -2, "Wolbachia per cell robust z, rep 2": -2.4, "Wolbachia per cell robust z, rep 3": 0.0347, "outcome": "inactive"}
{"gene knocked down": "btn (buttonless)", "PubChem SID": "SID104205030", "Wolbachia per cell robust z, rep 1": -2.05, "Wolbachia per cell robust z, rep 2": -0.403, "Wolbachia per cell robust z, rep 3": -0.336, "outcome": "inactive"}
{"gene knocked down": "Nepl9 (Neprilysin-like 9)", "PubChem SID": "SID104182047", "Wolbachia per cell robust z, rep 1": -1.82, "Wolbachia per cell robust z, rep 2": -0.422, "Wolbachia per cell robust z, rep 3": -0.344, "outcome": "inactive"}
{"gene knocked down": "CG15252", "PubChem SID": "SID104197773", "Wolbachia per cell robust z, rep 1": -4.73, "Wolbachia per cell robust z, rep 2": -1.23, "Wolbachia per cell robust z, rep 3": -1.12, "outcome": "inactive"}
{"gene knocked down": "CG15252", "PubChem SID": "SID104208189", "Wolbachia per cell robust z, rep 1": 0.387, "Wolbachia per cell robust z, rep 2": 0.641, "Wolbachia per cell robust z, rep 3": 0.943, "outcome": "inactive"}
{"gene knocked down": "hec (hector)", "PubChem SID": "SID104199687", "Wolbachia per cell robust z, rep 1": 0.194, "Wolbachia per cell robust z, rep 2": -1.34, "Wolbachia per cell robust z, rep 3": -0.283, "outcome": "inactive"}
{"gene knocked down": "Egm (Enigma)", "PubChem SID": "SID104187111", "Wolbachia per cell robust z, rep 1": -6.74, "Wolbachia per cell robust z, rep 2": -0.0502, "Wolbachia per cell robust z, rep 3": -1.34, "outcome": "inactive"}
{"gene knocked down": "Egm (Enigma)", "PubChem SID": "SID104202219", "Wolbachia per cell robust z, rep 1": -1.75, "Wolbachia per cell robust z, rep 2": -5.55, "Wolbachia per cell robust z, rep 3": -3.22, "outcome": "active"}
{"gene knocked down": "dcma (decima)", "PubChem SID": "SID104180038", "Wolbachia per cell robust z, rep 1": 0.673, "Wolbachia per cell robust z, rep 2": 2.61, "Wolbachia per cell robust z, rep 3": 0.242, "outcome": "inactive"}
{"gene knocked down": "dcma (decima)", "PubChem SID": "SID104180130", "Wolbachia per cell robust z, rep 1": 0.258, "Wolbachia per cell robust z, rep 2": -0.456, "Wolbachia per cell robust z, rep 3": -0.0809, "outcome": "inactive"}
{"gene knocked down": "dao (down and out)", "PubChem SID": "SID104181752", "Wolbachia per cell robust z, rep 1": 0.72, "Wolbachia per cell robust z, rep 2": 0.78, "Wolbachia per cell robust z, rep 3": 0.0275, "outcome": "inactive"}
{"gene knocked down": "dao (down and out)", "PubChem SID": "SID104204558", "Wolbachia per cell robust z, rep 1": 0.445, "Wolbachia per cell robust z, rep 2": 0.479, "Wolbachia per cell robust z, rep 3": 0.312, "outcome": "inactive"}
{"gene knocked down": "CG14971", "PubChem SID": "SID104188222", "Wolbachia per cell robust z, rep 1": -1.17, "Wolbachia per cell robust z, rep 2": 0.235, "Wolbachia per cell robust z, rep 3": -0.616, "outcome": "inactive"}
{"gene knocked down": "Rcc1 (Regulator of chromosome condensation 1)", "PubChem SID": "SID104189476", "Wolbachia per cell robust z, rep 1": 0.0933, "Wolbachia per cell robust z, rep 2": 1.4, "Wolbachia per cell robust z, rep 3": 1.78, "outcome": "inactive"}
{"gene knocked down": "Rcc1 (Regulator of chromosome condensation 1)", "PubChem SID": "SID104207525", "Wolbachia per cell robust z, rep 1": -0.294, "Wolbachia per cell robust z, rep 2": 2.76, "Wolbachia per cell robust z, rep 3": 1.07, "outcome": "inactive"}
{"gene knocked down": "d-cup (davis-cup)", "PubChem SID": "SID104194638", "Wolbachia per cell robust z, rep 1": 0.56, "Wolbachia per cell robust z, rep 2": -0.00999, "Wolbachia per cell robust z, rep 3": -0.0121, "outcome": "inactive"}
{"gene knocked down": "Zcchc7 (Zinc finger CCHC-type containing 7)", "PubChem SID": "SID104190891", "Wolbachia per cell robust z, rep 1": -0.295, "Wolbachia per cell robust z, rep 2": -0.057, "Wolbachia per cell robust z, rep 3": -0.806, "outcome": "inactive"}
{"gene knocked down": "Zcchc7 (Zinc finger CCHC-type containing 7)", "PubChem SID": "SID104204016", "Wolbachia per cell robust z, rep 1": 0.79, "Wolbachia per cell robust z, rep 2": 2.97, "Wolbachia per cell robust z, rep 3": 1.81, "outcome": "active"}
{"gene knocked down": "eIF4G1 (eukaryotic translation initiation factor 4G1)", "PubChem SID": "SID104197010", "Wolbachia per cell robust z, rep 1": -0.102, "Wolbachia per cell robust z, rep 2": -0.75, "Wolbachia per cell robust z, rep 3": 0.0683, "outcome": "inactive"}
{"gene knocked down": "eIF4G1 (eukaryotic translation initiation factor 4G1)", "PubChem SID": "SID104208330", "Wolbachia per cell robust z, rep 1": 1.77, "Wolbachia per cell robust z, rep 2": 1.26, "Wolbachia per cell robust z, rep 3": 0.675, "outcome": "inactive"}

Already shown: entries from further up.
{"gene knocked down": "Aldh7A1 (Aldehyde dehydrogenase 7 family member A1)", "PubChem SID": "SID104190875", "Wolbachia per cell robust z, rep 1": -0.0153, "Wolbachia per cell robust z, rep 2": 0.676, "Wolbachia per cell robust z, rep 3": -0.461, "outcome": "inactive"}
{"gene knocked down": "CheB42a (Chemosensory protein B 42a)", "PubChem SID": "SID104202240", "Wolbachia per cell robust z, rep 1": -0.209, "Wolbachia per cell robust z, rep 2": 0.655, "Wolbachia per cell robust z, rep 3": 0.312, "outcome": "inactive"}
{"gene knocked down": "CheB42a (Chemosensory protein B 42a)", "PubChem SID": "SID104219004", "Wolbachia per cell robust z, rep 1": -2, "Wolbachia per cell robust z, rep 2": -2.4, "Wolbachia per cell robust z, rep 3": 0.0347, "outcome": "inactive"}
{"gene knocked down": "btn (buttonless)", "PubChem SID": "SID104205030", "Wolbachia per cell robust z, rep 1": -2.05, "Wolbachia per cell robust z, rep 2": -0.403, "Wolbachia per cell robust z, rep 3": -0.336, "outcome": "inactive"}
